Experiment [1] concerns Acinetobacter baumannii. The conditions noted are these: MAC101.
Experiment [2] deals with Acinetobacter baumannii. The conditions noted are these: MAC101. The source holds these as a separate data set.
Experiment [3] concerns Acinetobacter baumannii. The conditions noted are these: MAC102.
The subject of experiment [4] is Acinetobacter baumannii. The conditions noted are these: MAC102. This is another data set of the same source.
Experiment [5] deals with Acinetobacter baumannii. The conditions noted are these: MAC103.
For experiment [6], the system named is Acinetobacter baumannii. The conditions noted are these: MAC103. This is another data set of the same source.
Experiment [7] concerns Acinetobacter baumannii. The conditions noted are these: MAC201.
The test system of experiment [8] is Acinetobacter baumannii. The conditions noted are these: MAC201. This is another data set of the same source.
Experiment [9] relates to Acinetobacter baumannii. The conditions noted are these: MAC203.
For experiment [10], the system named is Acinetobacter baumannii. The following applies: MAC203. This is another data set of the same source.
The test system of experiment [11] is Acinetobacter baumannii. The following applies: ACCA152.
Experiment [12] relates to Acinetobacter baumannii. The following applies: ACCA152. The source holds these as a separate data set.
Experiment [13] has as its system Acinetobacter baumannii. The conditions noted are these: AB060.
For experiment [14], the system named is Acinetobacter baumannii. The following applies: AB060. This is another data set of the same source.
In experiment [15] the test system is Acinetobacter baumannii. The conditions noted are these: MAC103. The source holds these as a separate data set.
In experiment [16] the test system is Acinetobacter baumannii. The following applies: MAC103. The source holds these as a separate data set.
Experiment [17] deals with Acinetobacter baumannii. The following applies: MAC203. This is another data set of the same source.
In experiment [18] the test system is Acinetobacter baumannii. The following applies: MAC203. This is another data set of the same source.
For experiment [19], the system named is Acinetobacter baumannii. The following applies: AB060. The source holds these as a separate data set.
The test system of experiment [20] is Acinetobacter baumannii. The conditions noted are these: AB060. The source holds these as a separate data set.
Experiment [21] relates to Acinetobacter baumannii. The following applies: MAC203. This is another data set of the same source.
Experiment [22] relates to Acinetobacter baumannii. The following applies: MAC203. This is another data set of the same source.
Experiment [23] relates to Acinetobacter baumannii. The following applies: MAC201. The source holds these as a separate data set.
The test system of experiment [24] is Acinetobacter baumannii. The conditions noted are these: MAC201. This is another data set of the same source.

A value given as a limit tells only on which side of the number the result lay.

For COLISTIN SULFATE, the MIC in the experiment with Acinetobacter baumannii [1] was 32 µg/mL; in the experiment with Acinetobacter baumannii [2], > 128 µg/mL; in the experiment on Acinetobacter baumannii [3], 4 µg/mL; against Acinetobacter baumannii [4] it was 64 µg/mL; in the experiment with Acinetobacter baumannii [5], 0.5 µg/mL; against Acinetobacter baumannii [6], 1 µg/mL. Further, the MIC is 64 µg/mL in the experiment with Acinetobacter baumannii [7]; 128 µg/mL in the experiment with Acinetobacter baumannii [8]; 0.5 µg/mL against Acinetobacter baumannii [9]; 2 µg/mL with Acinetobacter baumannii [10]; 24 µg/mL in the experiment with Acinetobacter baumannii [11]; > 128 µg/mL against Acinetobacter baumannii [12]. Moreover, the MIC against Acinetobacter baumannii [13] turned out to be 0.5 µg/mL; in the experiment on Acinetobacter baumannii [14], 1 µg/mL; against Acinetobacter baumannii [15], 128 µg/mL; in the experiment with Acinetobacter baumannii [16] it was 1 µg/mL; against Acinetobacter baumannii [17], 4 µg/mL; with Acinetobacter baumannii [18], 1 µg/mL. In addition, the MIC turned out to be 1 µg/mL in the experiment on Acinetobacter baumannii [19]; 0.25 µg/mL in the experiment on Acinetobacter baumannii [20]; 0.5 µg/mL in the experiment on Acinetobacter baumannii [21]; 4 µg/mL in the experiment on Acinetobacter baumannii [22]; 16 µg/mL against Acinetobacter baumannii [23]; 128 µg/mL in the experiment on Acinetobacter baumannii [24].

The values are drawn from ChEMBL document CHEMBL1687735, “Resistance to colistin in Acinetobacter baumannii associated with mutations in the PmrAB two-component system” (Antimicrob Agents Chemother, 2009).
